Test results published in US20210204550A1, “STABILIZED FUNGICIDAL COMPOSITION” (priority 2018, published 2021).

System: Alternaria solani
Experiment: Antifungal activity against Alternaria solani on tomato plants (percent control relative to untreated plants)
Type: in vivo
Details: across the three assays of Tables 2-4; agent at 2% in 60:40 (BC:water) dilution

## OCCN(CCO)CCO
  effect of stabilizing agent on antifungal activity of Paenibacillus sp. strain NRRL B-50972 BC: preserved the antifungal activity
